The source of these data is paper PMC6273394, “Discovery of a New Class of Sortase A Transpeptidase Inhibitors to Tackle Gram-Positive Pathogens: 2-(2-Phenylhydrazinylidene)alkanoic Acids and Related Derivatives” (Molecules, 2016).

By UniProt entry, the sequences of proteins in these tests, tags left out. Residues count along the entry.
UniProt Q2FV99, 60-206 limits assumed: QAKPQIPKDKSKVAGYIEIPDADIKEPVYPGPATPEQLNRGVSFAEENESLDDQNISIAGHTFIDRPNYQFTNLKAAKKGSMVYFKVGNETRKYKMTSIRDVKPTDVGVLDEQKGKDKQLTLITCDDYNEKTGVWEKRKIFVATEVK

Structures are written as SMILES. Some results are limits rather than exact numbers.

The assay deals with S. aureus SrtA (Staphylococcus aureus, UniProt Q2FV99). The experiment in a line: Sortase A FRET enzyme activity assay (hydrolysis of dabcyl-QALPETGEE-edans). The class given is biochemical. The following applies: read-out: IC50 (activity as sortase A inhibitors); 10 µM S. aureus sortase A, preincubated 1 h at 37 °C, 50 µM dabcyl-QALPETGEE-edans substrate.

On to `CCOC(=O)/C(=N\Nc1ccc(Cl)c(Cl)c1)C(=O)c1ccccc1`, for which the IC50 (commonly the midpoint of a concentration-inhibition curve) is over 500 µM.
